{"source": "patent EP0840781B1", "about": "“METHODS AND DEVICES FOR THE REMOVAL OF PSORALENS FROM BLOOD PRODUCTS” (Cerus Corporation, priority 1995, dated 1996)", "key": {"[1]": {"experiment": "HPLC analysis of residual S-59 and photoproducts in PC after UVA and 8-hour treatment with RD containing Dowex XUS-43493", "type": "physicochemical", "conditions": "150 µM S-59, 3 Joules/cm^2 UVA, RD (Dowex XUS-43493) for 8 hours", "protocol": "Briefly, the assay involved an initial sample preparation which lyses the platelets and solubilizes the S-59 and photoproducts. The supernatant from the sample preparation was then analyzed on a C-18 reverse phase column with a gradient of increasing methanol in KH2PO4 buffer. The major peaks were detected by optical absorbance. […] Samples of the treated PC were then taken and subjected to HPLC for detection of residual S-59 and S-59 photoproducts. Post-incubation levels of photoproducts D, E, and F (S-59) are presented in Table N; photoproducts A, B, C, and G were not detectable by HPLC. Levels of residual photoproducts are average values taken from six independent, photochemically- and RD-treated platelet units. […] The PC was assayed for unbound photoproducts using the HPLC assay discussed above, which quantifies the photoproducts present both within the platelets and in the plasma/PAS III mixture. […] In addition to assaying the complete PC, samples were centrifuged to remove the platelets so that unbound photoproducts in the plasma/PAS III could be analyzed separately. […] To evaluate the efficacy of the RD for reducing the concentration of S-59. platelet samples from the test unit were analyzed for S-59 content by HPLC. […] The concentration of S-59 before and after UVA illumination and the reduction in the concentration of residual S-59 following RD treatment were measured by HPLC analysis. […]"}, "[2]": {"test_system": "platelets suspended in 35% plasma/65% PAS III", "experiment": "Partitioning and distribution of S-59 in platelet concentrate before and after UVA (3H-S-59, HPLC)", "conditions": "150 µM, 35% plasma/[…]% PAS III, after UVA illumination", "from_the_text": "[…] When designing a \"capture\" or \"scrub\" device for psoralen removal, an important consideration is the identification and quantification of the residual levels of low molecular weight photoproducts. Several properties of the platelet mixture (e.g., lipid content, platelet content, hemoglobin/RBC content) can affect the final partitioning of psoralen and the amount of each photoproduct that must be removed during the capture or scrub process.\nUpon addition of S-59 to platelets, the S-59 rapidly partitions, establishing an equilibrium between S-59 in the plasma and S-59 within the platelets. […] In addition, higher percentages of S-59 will partition to the platelets if long incubation periods (e.g., greater than 60 minutes) occur between the addition of S-59 and illumination with UVA. The amount of S-59 which partitions to the platelets ultimately determines how much S-59 remains associated with platelets, how much is associated with plasma macromolecules, and how much remains as free photoproduct.\nDuring the UVA illumination process, S-59 undergoes a photochemical reaction to form several low molecular weight photoproducts in addition to associating with macromolecules in both the platelet and the plasma fractions. […]\nThe S-59 which is not amenable to removal by the scrub/capture process can also be monitored using ^3H-labeled S-59. This non-removable fraction, which represents 27% of the original 150 µM S-59, is covalently associated with macromolecules (e.g., lipids) in the platelet and plasma fractions.\nAs discussed previously. S-59 uptake by platelets can occur over a period of several hours before saturation occurs. FIG. 25A graphically depicts S-59 (C0 = 50 µM) uptake by platelets over time (top) and S-59 release by platelets over time (bottom). As shown in the top graph, S-59 equilibrium is achieved at approximately two hours."}, "[3]": {"test_system": "GMP-140 expression on platelets", "experiment": "GMP-140 (p-selectin) expression on platelets, CD62 antibody, flow cytometry", "type": "cell-based, human", "conditions": "100 µM compound, 5 Joules/cm^2, 5 days storage (FIGS. 21C-24C)", "protocol": "To measure the effects of the present compounds and methods of decontamination on platelet function using these four indicators, four samples were prepared for each compound tested, two control samples and two containing compound. […] These were each transferred under sterile conditions to 50 ml centrifuge tubes, then aliquots of each unit were transferred into a second set of 50 ml sterile centrifuge tubes. […] The samples were pipetted gently up and down to mix. […] Samples were treated in one of two different sized bags, having either 3 ml or 8 ml capacity. […] For each compound tested, two control samples without compound were prepared by again removing aliquots of platelet concentrate (17 ml if using an 8 ml bag, 4 ml if using a 3 ml bag) from the same one of the first set of 50 ml centrifuge tubes from which the compound sample was drawn, and dividing into Medibags, as before. […]"}}, "data": [{"compound": "Cc1oc2c(C)c3oc(=O)cc(C)c3cc2c1COCCN", "note": "[Compound 2, 4'-(4-amino-2-oxa)butyl-4,5',8-trimethylpsoralen]", "values": [{"measurement": "concentration of residual S-59 after RD treatment", "setting": "[1]; listed as S-59", "value": "≤ 0.3", "unit": "µM"}, {"measurement": "concentration of residual S-59 after RD treatment", "setting": "[1]; listed as S-S9", "value": "0.27 ± 0.05", "unit": "µM"}, {"measurement": "non-removable fraction of original S-59, covalently associated with macromolecules", "setting": "[2]", "value": 27, "unit": "%"}, {"measurement": "original S-59 associated with plasma macromolecules", "setting": "[2]", "value": "approximately 15%"}, {"measurement": "original S-59 associated with the platelets", "setting": "[2]", "value": "Approximately 20%"}, {"measurement": "original S-59 in plasma as S-59 and low molecular weight photoproducts", "setting": "[2]", "value": "approximately 65%"}, {"measurement": "original S-59 in platelets as S-59 and low molecular weight photoproducts", "setting": "[2]", "value": "8-9%"}, {"measurement": "original S-59 in platelets associated with macromolecules", "setting": "[2]", "value": "11-12%"}, {"measurement": "original S-59 that remains in the plasma", "setting": "[2]", "value": "approximately 80%"}, {"measurement": "GMP-140 expression, PCD sample versus day 5 untreated control (D5)", "setting": "[3]", "value": "little or no difference"}]}, {"compound": "Cc1oc2c(C)c3oc(=O)cc(C)c3cc2c1CNCCCCN", "note": "[Compound 6, 4'-(6-amino-2-aza)hexyl4,5',8-trimethylpsoralen]", "values": [{"measurement": "GMP-140 expression, PCD sample versus day 5 untreated control (D5)", "setting": "[3]", "value": "little or no difference"}]}, {"compound": "Cc1cc(=O)oc2c(C)c3oc(CNCCCCN)c(C)c3cc12", "note": "[Compound 17, 5'-(6-amino-2-aza)hexyl-4,4',8-trimethylpsoralen]", "values": [{"measurement": "GMP-140 expression, PCD sample versus day 5 untreated control (D5)", "setting": "[3]", "value": "little or no difference"}]}, {"compound": "Cc1cc(=O)oc2c(C)c3oc(COCCN)c(C)c3cc12", "note": "[Compound 18, 5'-(4-amino-2-oxa)butyl-4,4',8-trimethylpsoralen]", "values": [{"measurement": "GMP-140 expression, PCD sample versus day 5 untreated control (D5)", "setting": "[3]", "value": "a notable increase above the control"}]}]}
